Results of unrelated studies side by side (data: NIAID ChemDB).

Common to all: growth or infection tests

ECn: concentration that inhibits the pathogen or its effect by n%. Blank or dashed fields: not listed here. Fold resistance: result on the changed form divided by that on wild type. Percent inhibition refers to the dose given; in toxicity tests it is the harm to the cells. Lines come from different laboratories, so protocols vary. MIC50, MIC90 and the like: level of inhibition, or share of isolates inhibited.

CN[C@@H]1[C@H](O[C@H]2[C@H](O[C@H]3[C@H](O)[C@@H](O)[C@H](N=C(N)N)[C@@H](O)[C@@H]3N=C(N)N)O[C@@H](C)[C@]2(O)C=O)O[C@@H](CO)[C@H](O)[C@H]1O ; measure: MIC ; species: Pseudomonas aeruginosa ; result: 25 µg/mL
COc1ccc(C)cc1NCc1cnc2nc(N)nc(N)c2c1C ; measure: inhibition ; cells: RK-13 ; species: Encephalitozoon intestinalis ; dose: 0.01 µg/mL ; result: 41.6%
Nc1nc(N)c2ncn(CCOCP(=O)(O)O)c2n1 ; strain: ACV-resistant ; read by: plaque count ; measure: EC50 ; cells: HEL ; species: Varicella zoster virus ; result: 0.94 µg/mL
CC(C)=CCN1Cc2cc(Cl)cc3[nH]c(=S)n(c23)C[C@@H]1C ; measure: EC95 ; cells: MT-4 ; changes: RT-L74V Y181C ; species: HIV-1 ; result: >3 µM
COc1cc(C[C@H](C)[C@H](C)Cc2ccc(O)c(O)c2)ccc1O ; strain: CCC 117-2000 ; read by: broth dilution ; measure: MIC80 ; species: Candida krusei ; result: 125 µg/mL
NC[C@@H]1O[C@H](O[C@H]2[C@@H](O)[C@H](O[C@@H]3[C@@H](O)[C@H](N)C[C@H](N)[C@H]3O[C@H]3O[C@H](CO)[C@@H](O)[C@H](O)[C@H]3N)O[C@@H]2CO)[C@H](N)[C@@H](O)[C@@H]1O ; read by: cytopathic effect ; measure: EC50 ; cells: MRC-5 fibroblasts ; species: Encephalitozoon cuniculi ; result: >1000 µg/mL
C#CC[C@@H](C(=O)N[C@H](/C=C/C(=O)OCC)C[C@@H]1CCNC1=O)n1cccc(NC(=O)c2cc(C)on2)c1=O ; strain: Clinical isolate 15 (serotype 23) ; read by: cytopathic effect / XTT ; measure: EC50 ; cells: H1-HELA ; species: Rhinovirus ; result: 0.059 µM
C[C@H]1CN(c2c(F)cc3c(=O)c(C(=O)O)cn(C4CC4)c3c2OC(F)F)CCN1 ; strain: 10 strains (oxacillin-resistant) ; measure: MIC90 ; species: Staphylococcus aureus ; result: 8 µg/mL
COC(=O)Nc1nc2ccccc2[nH]1 ; strain: IU4 ; measure: EC90 ; species: Cryptococcus neoformans ; result: 3.6 µg/mL
Nc1ccn(C[C@@H](CO)OCP(=O)(O)O)c(=O)n1 ; strain: KOS PFA-resistant ; read by: cytopathic effect ; measure: EC50 ; cells: HEL ; species: Herpes simplex virus 1 ; result: 0.56 µg/mL
NC(=O)c1ncn([C@@H]2O[C@H](CO)[C@@H](O)[C@H]2O)n1 ; strain: Edmonston ; read by: cytopathic effect ; measure: EC50 ; cells: CV-1 ; species: Measles virus ; result: 10 µg/mL
C[C@@H](O)[C@H]1C(=O)N2C(C(=O)O)=C(SCCN=CN)C[C@H]12 ; strain: 25 strains (methicillin-susceptible) ; measure: MIC50 ; species: Staphylococcus aureus ; result: 0.06 µg/mL
O=C(O)P(=O)(O)O ; strain: PCV-resistant/B ; read by: plaque count ; measure: EC50 ; cells: HEL ; species: Varicella zoster virus ; result: 38.6 µg/mL
C=CCc1ccc(O)c(-c2ccc(O)c(CC=C)c2)c1 ; strain: YL 351 ; read by: broth dilution ; measure: MIC ; species: Candida albicans ; result: 128 µg/mL
CN(C)c1cc(NC(=O)CNC(C)(C)C)c(O)c2c1C[C@H]1C[C@H]3[C@H](N(C)C)C(=O)C(C(N)=O)=C(O)[C@@]3(O)C(=O)C1=C2O ; strain: X16 ; read by: broth dilution ; measure: MIC ; species: Mycobacterium massiliense ; result: 1 µg/mL
O=C(O)CP(=O)(O)O ; strain: PMEA-resistant ; read by: plaque count ; measure: EC50 ; cells: HEL ; species: Varicella zoster virus ; result: 21.5 µg/mL
C[C@H]1NCc2cc(-c3ccc4c(=O)c(C(=O)O)cn(C5CC5)c4c3OC(F)F)ccc21 ; strain: 24 strains (ofloxacin-susceptible) ; measure: MIC90 ; species: Staphylococcus aureus ; result: 0.03 µg/mL
COc1cc(Cc2cnc(N)nc2N)cc(OC)c1Br ; strain: Isolate 94-539 ; measure: MIC ; species: Mycobacterium ulcerans ; result: 4 µg/mL
C[C@@H](c1nc(-c2ccc(C#N)cc2)cs1)[C@](O)(Cn1cnnc1)c1ccc(F)cc1F ; strain: Isogenic isolate 9 (25X) ; measure: MIC ; species: Candida albicans ; result: ≤0.008 µg/mL
CCOc1cc(Cc2cnc(N)nc2N)cc(OCC)c1-n1cccc1 ; strain: Isolate 94-539 ; measure: MBC ; species: Mycobacterium ulcerans ; result: 1 µg/mL
Nc1nccc2c1ncn2[C@@H]1C[C@H](CO)[C@@H](O)[C@H]1O ; read by: cytopathic effect ; measure: EC50 ; cells: BALB/3T3 ; species: Vesicular stomatitis virus ; result: 300 µg/mL
CO[C@H]1/C=C/O[C@@]2(C)Oc3c(C)c(O)c4c(O)c(c5c(c4c3C2=O)NC2(CCN(CC(C)C)CC2)N=5)=NC(=O)/C(C)=C\C=C\[C@H](C)[C@H](O)[C@@H](C)[C@@H](O)[C@@H](C)[C@H](OC(C)=O)[C@@H]1C ; strain: 16 strains (methicillin- quinolone-resistant) ; measure: MIC90 ; species: Staphylococcus aureus ; result: 2 µg/mL
CCOC(=O)Nc1cc2c(c(N)n1)N=C1c3ccccc3CCC1O2.Cl.Cl ; measure: inhibition ; cells: RK-13 ; species: Encephalitozoon intestinalis ; dose: 0.01 µg/mL ; result: 9.4%
N[C@@H](C(=O)N[C@@H]1C(=O)N2C(C(=O)O)=C(Cl)CS[C@H]12)c1ccccc1 ; strain: 38 strains (ampicillin-susceptible) ; measure: MIC50 ; species: Haemophilus influenzae ; result: 2 µg/mL
Nc1ccnc2c1ncn2[C@H]1C=C[C@@H](OCP(=O)(O)O)O1 ; strain: WT 300 (TYPE 5) ; read by: virus yield ; measure: EC90 ; species: Adenovirus ; result: 16 µg/mL
O=c1cnn([C@@H]2O[C@H](CO)[C@@H](O)[C@H]2O)c(=O)[nH]1 ; strain: E101 ; read by: virus yield ; measure: EC50 ; cells: VERO ; species: West Nile virus ; result: <3.2 µg/mL
Nc1nc2c(ncn2CCC(CO)CO)c(=O)[nH]1 ; strain: PMEA-resistant ; read by: plaque count ; measure: EC50 ; cells: HEL ; species: Varicella zoster virus ; result: 4.9 µg/mL
CCCN1CCN(c2cc(=O)c3nc4c(oc3c2)c2c(=O)c3c(O)c(C)c5c(c34)=C(O)[C@@](C)(O/C=C/[C@H](OC)[C@@H](C)[C@@H](OC(C)=O)[C@H](C)[C@H](O)[C@H](C)[C@@H](O)[C@@H](C)/C=C/C=C(/C)C(=O)N2)O5)CC1 ; strain: 16 strains (methicillin- quinolone-resistant) ; measure: MIC90 ; species: Staphylococcus aureus ; result: 0.016 µg/mL
CCN(CC)CCCC(C)Nc1c2ccc(Cl)cc2nc2ccc(OC)cc12 ; measure: inhibition ; cells: RK-13 ; species: Encephalitozoon intestinalis ; dose: 1 µg/mL ; result: 36.7%
CCO/N=C/c1ccc(OCCC2CCN(c3ccc(C)nn3)CC2)cc1 ; strain: 1059 (ICAM-1 receptor group 14) ; read by: neutral red ; measure: EC50 ; cells: KB ; species: Rhinovirus ; result: 0.068 µM
CCCCC1=Nc2c(cc(NC(=O)OCC)nc2N)NC1C ; measure: inhibition ; cells: RK-13 ; species: Encephalitozoon intestinalis ; dose: 1 µg/mL ; result: 77.3%
Nc1nc(N)c2ncn(CCOCP(=O)(O)O)c2n1 ; strain: KOS ; read by: cytopathic effect ; measure: EC50 ; cells: HEL ; species: Herpes simplex virus 1 ; result: 3.6 µg/mL
Cc1c(N2C[C@@H](F)[C@@H](C3(N)CC3)C2)c(F)c(N)c2c(=O)c(C(=O)O)cn([C@@H]3C[C@@H]3F)c12 ; strain: 38 strains (ampicillin-susceptible) ; measure: MIC90 ; species: Haemophilus influenzae ; result: 0.015 µg/mL
Cc1ncc([N+](=O)[O-])n1CCO ; read by: cytopathic effect ; measure: EC50 ; cells: MRC-5 fibroblasts ; species: Encephalitozoon cuniculi ; result: <50 µg/mL
COC(=O)Nc1nc2ccc(Sc3ccccc3)cc2[nH]1 ; strain: IU4 ; measure: EC50 ; species: Cryptococcus neoformans ; result: <0.028 µg/mL
CC[C@H]1OC(=O)[C@H](C)[C@@H](O[C@H]2C[C@@](C)(OC)[C@@H](O)[C@H](C)O2)[C@H](C)[C@@H](O[C@@H]2O[C@H](C)C[C@H](N(C)C)[C@H]2O)[C@](C)(OC)C[C@@H](C)C(=O)[C@H](C)[C@@H](O)[C@]1(C)O ; strain: V29 ; read by: broth dilution ; measure: MIC ; species: Mycobacterium massiliense ; result: 0.125 µg/mL
C[C@@H]1CN(c2c(F)c(N)c3c(=O)c(C(=O)O)cn(C4CC4)c3c2F)C[C@H](C)N1 ; strain: Clinical isolate RT2 ; measure: MIC ; species: Streptococcus pneumoniae ; result: 8 µg/mL
CCCCCCCCCCCCCCCCCCCCCCOCC(C)(COCCCCCCCCCCCCCCCCCCCCCC)CO[C@]1(C(=O)O)C[C@H](OS(=O)(=O)O)[C@@H](NC(C)=O)[C@H]([C@H](OS(=O)(=O)O)[C@@H](COS(=O)(=O)O)OS(=O)(=O)O)O1 ; strain: Y751 ; read by: plaque count ; measure: EC50 ; cells: HEP-2 ; species: Respiratory syncytial virus ; result: 0.57 µM
CN(C)[C@@H]1C(=O)C(C(N)=O)=C(O)[C@@]2(O)C(=O)C3=C(O)c4c(O)c(NC(=O)CNc5ccccc5)cc(F)c4C[C@H]3C[C@@H]12 ; strain: 158-tet ; read by: agar diffusion ; measure: EC50 ; species: Staphylococcus aureus ; result: 2 µg/mL
Cc1cn([C@@H]2O[C@H](CO)[C@@H](O)[C@@H]2O)c(=O)[nH]c1=O ; strain: KOS ; read by: cytopathic effect ; measure: EC50 ; cells: HEL ; species: Herpes simplex virus 1 ; result: 0.27 µg/mL
COc1c(N2CCNC(C)C2)c(F)cc2c(=O)c(C(=O)O)cn(C3CC3)c12 ; strain: 25 strains (methicillin-susceptible) ; measure: MIC50 ; species: Staphylococcus aureus ; result: 0.12 µg/mL
CC(C)(CO)C(=O)SCCOP(=O)(NCc1ccccc1)OC[C@H]1O[C@@H](n2cnc3c(=O)[nH]c(N)nc32)[C@](C)(O)[C@@H]1O ; strain: GT1a ; read by: replicon ; measure: fold resistance ; cells: Replicon cells ; changes: Y93C ; species: Hepatitis C virus ; result: 1.06
CCOC(=O)Nc1cc2c(c(N)n1)N=C(c1ccc(OC)c(OC)c1)CO2 ; measure: inhibition ; cells: RK-13 ; species: Encephalitozoon intestinalis ; dose: 0.01 µg/mL ; result: 10%
O=c1[nH]cc(F)c(=O)[nH]1 ; read by: cytopathic effect ; measure: inhibition ; cells: MRC-5 fibroblasts ; species: Encephalitozoon cuniculi ; dose: 0.2 µg/mL ; result: 0%
O=C(OC1Cc2c(O)cc(O)cc2OC1c1cc(O)c(O)c(O)c1)c1cc(O)c(O)c(O)c1 ; strain: Clinical isolate 5 ; read by: broth dilution ; measure: MIC50 ; species: Candida tropicalis ; result: >128 µg/mL
O=C1C(=O)c2ccccc2C(O)=C1C1CCC(c2ccc(Cl)cc2)CC1 ; read by: cytopathic effect ; measure: EC50 ; cells: MRC-5 fibroblasts ; species: Encephalitozoon cuniculi ; result: >5 µg/mL
NC12CC3CC(CC(C3)C1)C2 ; strain: H1N1 Yamagata/120/86 ; read by: plaque count ; measure: EC50 ; cells: MDCK ; species: Influenza A virus ; result: 1.6 µg/mL
Nc1ncc2c(ncn2COC(CO)CO)n1 ; strain: KOS BVDU-resistant ; read by: cytopathic effect ; measure: EC50 ; cells: HEL ; species: Herpes simplex virus 1 ; result: 0.11 µg/mL
Nc1nc2c(ncn2CCOCP(=O)(O)O)c(=O)[nH]1 ; strain: Halonen ; read by: neutral red ; measure: EC50 ; species: Measles virus ; result: <0.03 µg/mL
Nc1[nH]c(=O)ncc1F ; read by: cytopathic effect ; measure: inhibition ; cells: MRC-5 fibroblasts ; species: Encephalitozoon cuniculi ; dose: 10 µg/mL ; result: 0%
Nc1ncnc2c1ncn2C[C@H](CO)OCP(=O)(O)O ; strain: adenoid 6 (TYPE 2) ; read by: cytopathic effect ; measure: EC50 ; species: Adenovirus ; result: 3 µg/mL
COc1c(N2C[C@@H]3CCCN[C@@H]3C2)c(F)cc2c(=O)c(C(=O)O)cn(C3CC3)c12 ; strain: 24 strains (ofloxacin-susceptible) ; measure: MIC50 ; species: Staphylococcus aureus ; result: 0.12 µg/mL
Nc1ncnc2c1ncn2C[C@@H](CO)OCP(=O)(O)O ; strain: KOS PMEA-resistant ; read by: cytopathic effect ; measure: EC50 ; cells: HEL ; species: Herpes simplex virus 1 ; result: 0.06 µg/mL
CCCCNC(=O)n1c(NC(=O)OC)nc2ccccc21 ; strain: ATCC 14116 ; measure: EC90 ; species: Cryptococcus neoformans ; result: 3.5 µg/mL

The last 7 rows once more:

SMILES | strain | read by | measure | cells | changes | species | dose | result
Nc1ncc2c(ncn2COC(CO)CO)n1 | KOS BVDU-resistant | cytopathic effect | EC50 | HEL | - | Herpes simplex virus 1 | - | 0.11 µg/mL
Nc1nc2c(ncn2CCOCP(=O)(O)O)c(=O)[nH]1 | Halonen | neutral red | EC50 | - | - | Measles virus | - | <0.03 µg/mL
Nc1[nH]c(=O)ncc1F | - | cytopathic effect | inhibition | MRC-5 fibroblasts | - | Encephalitozoon cuniculi | 10 µg/mL | 0%
Nc1ncnc2c1ncn2C[C@H](CO)OCP(=O)(O)O | adenoid 6 (TYPE 2) | cytopathic effect | EC50 | - | - | Adenovirus | - | 3 µg/mL
COc1c(N2C[C@@H]3CCCN[C@@H]3C2)c(F)cc2c(=O)c(C(=O)O)cn(C3CC3)c12 | 24 strains (ofloxacin-susceptible) | - | MIC50 | - | - | Staphylococcus aureus | - | 0.12 µg/mL
Nc1ncnc2c1ncn2C[C@@H](CO)OCP(=O)(O)O | KOS PMEA-resistant | cytopathic effect | EC50 | HEL | - | Herpes simplex virus 1 | - | 0.06 µg/mL
CCCCNC(=O)n1c(NC(=O)OC)nc2ccccc21 | ATCC 14116 | - | EC90 | - | - | Cryptococcus neoformans | - | 3.5 µg/mL